Measured values from several laboratories, pooled; numbers as filed in NIAID ChemDB.

Common to all: target-level tests; species: HIV-1; protein: Reverse transcriptase

Rows are shuffled and stem from different studies. a–b is a range or a potency band. Blank or dashed fields: not listed here. ICn is the concentration giving n% inhibition.

{"SMILES": "COc1ccc2c(c1)N(C(=O)OC(C)C)[C@@H](CSC)C(=S)N2", "endpoint": "IC50", "method": "radiometric", "value": "0.014 µM"}
{"SMILES": "CC(C)(C)c1ccc(-n2nnnc2SCC(=O)Nc2ccc(NC(=O)Cn3cnnn3)cc2Cl)c(Cl)c1", "endpoint": "IC50", "method": "PicoGreen / fluorescence", "mutations": "RT-K103 Y181C", "value": "<1 µM"}
{"SMILES": "Nc1nc2c(ncn2[C@H]2CC[C@@H](COP(=O)(O)OP(=O)(O)OP(=O)(O)O)O2)c(=O)[nH]1", "endpoint": "IC50", "method": "nucleotide incorporation", "value": "0.05 µM"}
{"SMILES": "FC(F)(F)c1cccc2c1CCN(c1nn3c(C4CC4)nnc3c3ccccc13)C2", "endpoint": "IC90", "method": "RT activity / fluorescence", "strain or isolate": "KER2008", "value": "62.3 µM"}
{"SMILES": "CC(C)(C#Cc1ccc(NC(=O)CSc2nnnn2-c2cc(C(F)(F)F)cc(C3CC3)c2Cl)c(Cl)c1)OCCN1CCNCC1", "endpoint": "IC50", "method": "PicoGreen / fluorescence", "strain or isolate": "WT", "value": "<1 µM"}
{"SMILES": "COc1ccc2c(c1)CN(c1nn3c(C)nnc3c3ccccc13)CC2", "endpoint": "IC50", "method": "RT activity / fluorescence", "strain or isolate": "98US_MSC5016", "value": "4.41 µM"}
{"SMILES": "O=C(O[C@@H]1O[C@H](CO)[C@@H](O)[C@H](O)[C@H]1O)c1cc(O)c(O)c(O)c1", "endpoint": "IC50", "method": "nucleotide incorporation", "value": ">20 µg/mL"}
{"SMILES": "O=C(CSc1nnnn1-c1ccc(C2CC2)cc1Cl)Nc1ccc(S(=O)(=O)N2CCC(C(=O)O)CC2)cc1Cl", "endpoint": "IC50", "method": "PicoGreen / fluorescence", "strain or isolate": "WT", "value": "<1 µM"}
{"SMILES": "O=C(/C=C/c1ccc(O)c2c1[C@H](C(=O)O[C@H](Cc1ccc(O)c(O)c1)C(=O)O)[C@@H](c1ccc(O)c(O)c1)O2)O[C@H](Cc1ccc(O)c(O)c1)C(=O)O", "endpoint": "IC50", "method": "nucleotide incorporation", "value": ">20 µg/mL"}
{"SMILES": "CC(C)Nc1cccnc1N1CCN(C(=O)c2cc3cc(F)ccc3[nH]2)CC1", "endpoint": "IC50", "strain or isolate": "IIIB", "value": "0.21 µM"}
{"SMILES": "CC(C)C[C@@H]1N2Cc3c(c4ccccc4n3C(=O)OC(C)(C)C)C1(O)c1c(n(C(=O)OC(C)(C)C)c3ccccc13)C2", "endpoint": "IC50", "method": "radiometric", "value": "<32 µM"}
{"SMILES": "Cc1ccc(CSc2cc(NC(=S)c3ccoc3C)ccc2Cl)cc1", "endpoint": "IC50", "method": "nucleotide incorporation", "value": "8.546 µM"}
{"SMILES": "CC(C)(C#Cc1ccc(NC(=O)CSc2nnnn2-c2ccc(C3CC3)cc2Cl)c(Cl)c1)NC(=O)c1ccc[n+]([O-])c1", "endpoint": "IC50", "method": "PicoGreen / fluorescence", "strain or isolate": "WT", "value": "<1 µM"}
{"SMILES": "O=C(OC1[C@H](O)CC(O)(C(=O)O)C[C@H]1O)c1cc(O)c(O)c(O)c1", "endpoint": "IC50", "method": "nucleotide incorporation", "value": ">20 µg/mL"}
{"SMILES": "NC1C=CN([C@@H]2O[C@H](COP(=O)(O)OP(=O)(O)OP(=O)(O)O)[C@@H](O)[C@@H]2O)C(=O)N1", "endpoint": "IC50", "value": ">100 µM"}
{"SMILES": "O=C(O[C@@H]1O[C@H](CO)[C@@H](O)[C@H](O)[C@H]1O)c1cc(O)c(O)c(O)c1", "endpoint": "IC50", "value": ">1000 µM"}
{"SMILES": "CCOCn1c(Cc2ccccc2)c(C(C)C)c(=O)[nH]c1=O", "endpoint": "IC50", "method": "radiometric", "mutations": "RT-W229F", "value": "0.13 µM"}
{"SMILES": "Cc1ccc(-c2ncsc2SCC(=O)Nc2ccc(-c3ccc(CC(=O)O)cc3)cc2Cl)c(Cl)c1", "endpoint": "IC50", "method": "PicoGreen / fluorescence", "strain or isolate": "WT", "value": "<1 µM"}
{"SMILES": "Cc1cn([C@H]2C[C@H](N)[C@@H](COP(=O)(O)OP(=O)(O)OP(=O)(O)O)O2)c(=O)[nH]c1=O", "endpoint": "IC50", "method": "nucleotide incorporation", "value": "<0.05 µM"}
{"SMILES": "O=C(CSc1nc2c(ncn2[C@H]2C[C@H](O)[C@@H](COP(=O)(O)OP(=O)(O)OP(=O)(O)O)O2)c2nccn12)c1ccc(F)cc1", "endpoint": "Ki", "method": "radiometric", "value": "10 µM"}
{"SMILES": "Nc1nc2c(ncn2[C@H]2CC[C@@H](COP(=O)(O)OP(=O)(O)OP(=O)(O)O)O2)c(=O)[nH]1", "endpoint": "IC50", "method": "nucleotide incorporation", "value": "0.08 µM"}
{"SMILES": "CC[C@H]1C(=O)Nc2ccc(F)cc2N1C(=O)OC(C)C", "endpoint": "IC50", "method": "radiometric", "mutations": "RT-W229Y", "value": "0.19 µM"}
{"SMILES": "CCN1c2ncc(CCOc3ccc(CC(C)C(=O)O)c4ccccc34)cc2C(=O)N(C)c2ccc(C)nc21", "endpoint": "IC50", "method": "nucleotide incorporation / radiometric", "mutations": "RT-V106A", "value": ">1 µM"}
{"SMILES": "COc1ccc2[nH]c(C(=O)N3CCN(c4ncccc4NC(C)C)CC3)cc2c1", "endpoint": "IC50", "strain or isolate": "IIIB", "value": "0.25 µM"}
{"SMILES": "O=C1Nc2ccc(F)c(F)c2[C@@](C#CC2CC2)(C(F)(F)F)N1", "endpoint": "IC50", "value": "0.018 µM"}
{"SMILES": "CC(C)(C#Cc1ccc(NC(=O)CSc2nnnn2-c2ccc(C3CC3)cc2Cl)c(Cl)c1)OCCO", "endpoint": "IC50", "method": "PicoGreen / fluorescence", "mutations": "RT-K103 Y181C", "value": "<1 µM"}
{"SMILES": "Cc1cn([C@H]2CC[C@@H](COP(=O)(O)OP(=O)(O)OP(=O)(O)O)O2)c(=O)[nH]c1=O", "endpoint": "IC50", "method": "nucleotide incorporation", "mutations": "RT-K65R", "value": ">50 µM"}
{"SMILES": "CC(C)(O)C#Cc1ccc(NC(=O)CSc2nnnn2-c2ccc(C3CC3)cc2Cl)c(Br)c1", "endpoint": "IC50", "method": "PicoGreen / fluorescence", "mutations": "RT-K103 Y181C", "value": "<1 µM"}
{"SMILES": "Cc1nnc2c3ccccc3c(N3CCc4ccccc4C3)nn12", "endpoint": "IC90", "method": "RT activity / fluorescence", "strain or isolate": "IIIB", "value": "0.31 µM"}
{"SMILES": "Cc1occc1C(=S)Nc1ccc(Cl)c(OCC(C)(C)C)c1", "endpoint": "IC50", "method": "nucleotide incorporation", "value": "16.8 µM"}
{"SMILES": "CCN1c2ncc(CCOc3ccc(C(=O)O)c4c3CCN(C(C)=O)C4)cc2C(=O)N(C)c2cccnc21", "endpoint": "IC50", "method": "nucleotide incorporation / radiometric", "mutations": "RT-Y188L", "value": ">1 µM"}
{"SMILES": "CC(C)=CCOc1cc(NC(=S)c2ccoc2C)ccc1Cl", "endpoint": "IC50", "method": "nucleotide incorporation", "value": "0.021 µM"}
{"SMILES": "CC(C)(C#Cc1ccc(NC(=O)CSc2nnnn2-c2cc(Cl)ccc2Cl)c(Cl)c1)NC(=O)CN1CCNCC1", "endpoint": "IC50", "method": "PicoGreen / fluorescence", "strain or isolate": "WT", "value": "<1 µM"}
{"SMILES": "O=C(OC[C@H]1O[C@@H](OC(=O)c2cc(O)c(O)c(O)c2)[C@H](O)[C@@H](O)[C@@H]1O)c1cc(O)c(O)c(O)c1", "endpoint": "IC50", "method": "nucleotide incorporation", "value": ">20 µg/mL"}
{"SMILES": "CC(C)(C#Cc1ccc(NC(=O)CSc2nnnn2-c2ccc(C3CC3)cc2Cl)c(Cl)c1)C(=O)NCCCN1CCCC1=O", "endpoint": "IC50", "method": "PicoGreen / fluorescence", "strain or isolate": "WT", "value": "<1 µM"}
{"SMILES": "CC(C)Nc1cccnc1N1CCN(C(=O)c2cc3ccc(O)cc3[nH]2)CC1", "endpoint": "IC50", "method": "scintillation proximity", "mutations": "RT-Y188L", "value": "2.86 µM"}
{"SMILES": "CC(C)(C)c1ccc(-n2nnnc2SCC(=O)Nc2ccc(OCC(=O)NCc3ccco3)cc2Cl)c(Cl)c1", "endpoint": "IC50", "method": "PicoGreen / fluorescence", "strain or isolate": "WT", "value": "<1 µM"}
{"SMILES": "Cc1cn(COCCOP(=O)(O)OP(=O)(O)OP(=O)(O)O)c(=O)[nH]c1=O", "endpoint": "IC50", "method": "nucleotide incorporation", "value": "0.25 µM"}
{"SMILES": "CC(C)(N)C#Cc1ccc(NC(=O)CSc2nnnn2-c2cc(C(C)(C)C)ccc2Cl)c(Cl)c1", "endpoint": "IC50", "method": "PicoGreen / fluorescence", "strain or isolate": "WT", "value": "<1 µM"}
{"SMILES": "[N-]=[N+]=Nc1ccc(C(=O)CSc2nc3c(ncn3[C@H]3C[C@H](O)[C@@H](COP(=O)(O)OP(=O)(O)OP(=O)(O)O)O3)c3nccn23)cc1", "endpoint": "Ki", "method": "radiometric", "value": "8 µM"}
{"SMILES": "CC(C)(C#Cc1ccc(NC(=O)CSc2nnnn2-c2ccc(C3CC3)cc2Cl)c(Cl)c1)NC(=O)c1ccncc1", "endpoint": "IC50", "method": "PicoGreen / fluorescence", "strain or isolate": "WT", "value": "<1 µM"}
{"SMILES": "CCN1c2ncc(CCOc3ccc(CC(=O)NN)c4ccccc34)cc2C(=O)N(C)c2cccnc21", "endpoint": "IC50", "method": "nucleotide incorporation / radiometric", "mutations": "RT-V106A", "value": "0.1–1 µM"}
{"SMILES": "Cc1ccc(-n2nnnc2SCC(=O)Nc2ccc(-c3cccc(C(=O)O)c3)cc2Cl)c(Cl)c1", "endpoint": "IC50", "method": "PicoGreen / fluorescence", "mutations": "RT-K103 Y181C", "value": "<1 µM"}
{"SMILES": "CCN1c2ncc(CCOc3ccc(CCC(=O)O)c4ccccc34)cc2C(=O)Nc2c(C)cc(F)nc21", "endpoint": "IC50", "method": "nucleotide incorporation / radiometric", "strain or isolate": "WT", "value": "<0.1 µM"}
{"SMILES": "Cc1ccc(-n2nnnc2SCC(=O)Nc2ccc(-c3ccc(CC(=O)O)cc3)cc2Cl)c(Cl)c1", "endpoint": "IC50", "method": "PicoGreen / fluorescence", "strain or isolate": "WT", "value": "<1 µM"}
{"SMILES": "CCN1c2ncc(CCOc3ccc(C(=O)O)c4c3CCC4)cc2C(=O)N(C)c2ccc(Cl)nc21", "endpoint": "IC50", "method": "nucleotide incorporation / radiometric", "strain or isolate": "WT", "value": "<0.1 µM"}
{"SMILES": "CC(C)(C#Cc1ccc(NC(=O)CSc2nnnn2-c2ccc(C(C)(C)C)cc2Cl)c(Cl)c1)OCC(=O)Nc1cccc(C(=O)O)c1", "endpoint": "IC50", "method": "PicoGreen / fluorescence", "mutations": "RT-K103 Y181C", "value": "<1 µM"}
{"SMILES": "C=CC(C)(C)c1[nH]c2ccccc2c1C1=C(O)C(=O)C(c2cn3c4c(cccc24)CCC3(C)C)=C(O)C1=O", "endpoint": "IC50", "method": "binding", "value": "4.5 µM"}
{"SMILES": "O=C(CSc1nnnn1-c1ccc(C(F)(F)F)cc1Cl)Nc1ccc(-c2ccc(OCCn3ccnc3)cc2)cc1Cl", "endpoint": "IC50", "method": "PicoGreen / fluorescence", "strain or isolate": "WT", "value": "<1 µM"}
{"SMILES": "Nc1cc2c(c(N3CCCC3)c1)CCN(c1nn3c(C4CC4)nnc3c3ccccc13)C2", "endpoint": "IC50", "method": "RT activity / fluorescence", "strain or isolate": "KER2008", "value": "18.1 µM"}
{"SMILES": "CC(C)(C#Cc1ccc(NC(=O)CSc2nnnn2-c2ccc(C3CC3)cc2Cl)c(Cl)c1)NCC1CC1", "endpoint": "IC50", "method": "PicoGreen / fluorescence", "strain or isolate": "WT", "value": "<1 µM"}
{"SMILES": "CCN1c2ncc(CCOc3ccc(CCC(=O)O)c4ccccc34)cc2C(=O)Nc2c(C)cc(Cl)nc21", "endpoint": "IC50", "method": "nucleotide incorporation / radiometric", "mutations": "RT-V106A", "value": "0.1–1 µM"}

5 of the rows above, restated:

SMILES,endpoint,method,strain or isolate,mutations,value
CC(C)=CCOc1cc(NC(=S)c2ccoc2C)ccc1Cl,IC50,nucleotide incorporation,-,-,0.021 µM
CCOCn1c(Cc2ccccc2)c(C(C)C)c(=O)[nH]c1=O,IC50,radiometric,-,RT-W229F,0.13 µM
CC(C)(C#Cc1ccc(NC(=O)CSc2nnnn2-c2ccc(C3CC3)cc2Cl)c(Cl)c1)NCC1CC1,IC50,PicoGreen / fluorescence,WT,-,<1 µM
CC(C)(C#Cc1ccc(NC(=O)CSc2nnnn2-c2ccc(C3CC3)cc2Cl)c(Cl)c1)NC(=O)c1ccncc1,IC50,PicoGreen / fluorescence,WT,-,<1 µM
COc1ccc2c(c1)N(C(=O)OC(C)C)[C@@H](CSC)C(=S)N2,IC50,radiometric,-,-,0.014 µM